Pooled drug test results. Numbers come from NIAID ChemDB, via PubChem.

Shared fields: tests in culture; organism: HIV-1; endpoint: fold resistance

Fold resistance has wild type as its base.

compound,strain or isolate,read by,changes,cells,result
CC(C)CN(C[C@@H](O)[C@H](Cc1ccccc1)NC(=O)O[C@H]1CCOC1)S(=O)(=O)c1ccc(N)cc1,Clinical isolate,p24,PR-L10I K14R R41K M46L I54V L63P A71V V82A L90M I93L,PBMC,6.4
Cc1cn([C@@H]2O[C@H](CO[Si](C)(C)C(C)(C)C)C3(OS(=O)(=O)C=C3N)[C@H]2O[Si](C)(C)C(C)(C)C)c(=O)n(C)c1=O,IIIB TIBO R82913-resistant (RT K103N),syncytia,RT-K103N,CEM,5
Cc1cn([C@H]2C[C@H](N=[N+]=[N-])[C@@H](CO)O2)c(=O)[nH]c1=O,6 clinical isolates AZT-resistant,p24,,PBMC,5.33
Nc1ccn([C@H]2CC[C@@H](CO)O2)c(=O)n1,,p24,RT-delta67 K103N,MT-2,5.2
O=c1[nH]cnc2c1ncn2[C@H]1CC[C@@H](CO)O1,NL4-3,p24,RT-I178L,MT-2,0.67
CCc1cc(NCc2nc3c(Cl)ccc(Cl)c3o2)c(=O)[nH]c1C,IIIB TIBO R82913-resistant (RT K103N),syncytia,RT-K103N,CEM,71.4
Cc1nnc(C[C@H](C[C@H](O)CN2CCN(C(C)(C)c3ncc(-c4ccc(F)cc4)o3)C[C@H]2C(=O)NCC(F)(F)F)C(=O)N[C@H]2c3ccccc3OC[C@H]2O)o1,K-60 Clinical isolate,p24,PR-L10I M46I I54V Q58E L63P I64V V77I V82F I84V L90M I93L,MT-4,1
Cc1c(Sc2ccccc2)n(COCCO)c(=O)[nH]c1=O,IIIB HEPT-resistant (RT Y188H),syncytia,RT-Y188H,CEM,≥33.3
COc1cccc(C[C@H](NC(=O)c2cccc(O)c2C)[C@H](O)C(=O)N2CSC(C)(C)[C@H]2C(=O)NCc2c(C)cccc2C)c1,1026-40 PI-resistant,RT activity,PR-L10I M46I I54V L63P A71V V82A L90M,PBMC,9
O=C1N(Cc2ccc(CO)cc2)[C@H](COc2ccccc2)[C@H](O)[C@@H](O)[C@@H](COc2ccccc2)N1Cc1ccc(CO)cc1,IIIB,cytopathic effect / XTT,PR-L10F I84V,MT-4,31.7
CC(C)(c1ncc(-c2ccc(Cl)cc2)o1)N1CCN(C[C@@H](O)C[C@@H](Cc2nnco2)C(=O)N[C@H]2c3ccccc3OC[C@H]2O)[C@H](C(=O)NCC(F)(F)F)C1,K-60 Clinical isolate,p24,PR-L10I M46I I54V Q58E L63P I64V V77I V82F I84V L90M I93L,MT-4,0.504
Clc1nc(Cl)c2[nH]cnc2n1,,p24,RT-M184V,CD4+HELA + HeLa,0.455
O=C(N[C@H]1c2ccccc2OC[C@H]1O)[C@H](Cc1nnco1)C[C@H](O)CN1CCN(Cc2ccc(-c3ccc(Cl)cc3)o2)C[C@H]1C(=O)NCC(F)(F)F,Q-60 Clinical isolate,p24,PR-L10I N37S R41K M46I I54V I62V L63P A71V V77I V82A L90M I93L,MT-4,0.49
CCn1c(=O)c(C)cn([C@@H]2O[C@H](CO[Si](C)(C)C(C)(C)C)C3(OS(=O)(=O)C=C3N)[C@H]2O[Si](C)(C)C(C)(C)C)c1=O,IIIB HEPT-resistant (RT Y188H),syncytia,RT-Y188H,CEM,>833
CC(C)CN(C[C@@H](O)[C@H](Cc1ccccc1)NC(=O)O[C@H]1CCOC1)S(=O)(=O)c1ccc(N)cc1,1002-60 PI-resistant,RT activity,PR-L10I M46I I54V L63P V82F L90M,PBMC,7
CCCc1nnc(C[C@H](C[C@H](O)CN2CCN(Cc3ccc(-c4ccc(Cl)cc4)o3)C[C@H]2C(=O)NCC(F)(F)F)C(=O)N[C@H]2c3ccccc3OC[C@H]2O)o1,K-60 Clinical isolate,p24,PR-L10I M46I I54V Q58E L63P I64V V77I V82F I84V L90M I93L,MT-4,1
Nc1ncnc2c1ncn2CCOCP(=O)(O)O,IIIB-Pyridinone(0.1)(RT-V179N,syncytia,RT-V179N,CEM,1.86
CCc1cc(NCc2nc3c(Cl)ccc(Cl)c3o2)c(=O)[nH]c1C,NL4-3,p24,RT-V108I,MT-4,4
CC(C)=CCN1Cc2cc(Cl)cc3[nH]c(=S)n(c23)C[C@@H]1C,HIVRTMF (RT L74V),plaque count,RT-L74V T215Y,HT4 + HT4 LacZ-1,0.909
O=c1[nH]cnc2c1ncn2[C@H]1CC[C@@H](CO)O1,HXB2D (RT-K65R),p24,RT-K65R,CBMC,3.55
C#CCN1C(=O)N(Cc2ccccc2)S(=O)(=O)c2cscc21,IIIB,syncytia,RT-L100I,CEM,1.18
Cc1ccccc1CNC(=O)[C@H]1N(C(=O)[C@@H](O)[C@H](Cc2ccccc2)NC(=O)c2cccc(O)c2C)CSC1(C)C,1026-40 PI-resistant,RT activity,PR-L10I M46I I54V L63P A71V V82A L90M,PBMC,6
Cc1c(O)cccc1C(=O)N[C@@H](CSc1ccccc1)[C@H](O)CN1C[C@H]2CCCC[C@H]2C[C@H]1C(=O)NC(C)(C)C,Clinical isolate,p24,PR-L10R N37D M46I I62V L63P A71V G73S V77I V82T L90M I93L,PBMC,>43.5
Cc1cccc(C)c1OCC(=O)N[C@@H](Cc1ccccc1)[C@@H](O)C[C@H](Cc1ccccc1)NC(=O)[C@H](C(C)C)N1CCCNC1=O,052-52 PI-resistant,RT activity,PR-L10R M46I L63P A71V V82T I84V,PBMC,527
CC(C)c1nc(CN(C)C(=O)N[C@H](C(=O)N[C@@H](Cc2ccccc2)C[C@H](O)[C@H](Cc2ccccc2)NC(=O)OCc2cncs2)C(C)C)cs1,Clinical isolate,p24,PR-L10I I15V K20R M36I M46L I54V K55R I62V L63P K70Q V82A L89M,PBMC,>23
N#CCN1C(=O)N(Cc2ccccc2)S(=O)(=O)c2cscc21,IIIB,syncytia,RT-K103N,CEM,>250
Cc1cn([C@H]2C=C[C@@H](CO)O2)c(=O)[nH]c1=O,RT Δ.67 T69G K103N,p24,1 (Δ.67+T69G+K103N),MT-2,4.1
Cc1cn([C@@H]2O[C@H](CO[Si](C)(C)C(C)(C)C)C3(OS(=O)(=O)C=C3N)[C@H]2O[Si](C)(C)C(C)(C)C)c(=O)n(C)c1=O,IIIB-Pyridinone(0.1)(RT-V179N,syncytia,RT-V179N,CEM,7.33
CC(C)Nc1cccnc1N1CCN(C(=O)c2cc3cc(NS(C)(=O)=O)ccc3[nH]2)CC1,477 clinical isolates delavirdine-resistant,p24,,PBMC,67
Nc1ccn([C@H]2CC[C@@H](CO)O2)c(=O)n1,HXB2-D184 (RT-M184V),RT activity,RT-M184V,MT-4,5.45
CC(C)c1nc(CN(C)C(=O)N[C@H](C(=O)N[C@@H](Cc2ccccc2)C[C@H](O)[C@H](Cc2ccccc2)NC(=O)OCc2cncs2)C(C)C)cs1,NL4-3,p24,PR-D30N M46I A71V,MT-4,0.8
Cc1cccc(C)c1CNC(=O)[C@H]1N(C(=O)[C@@H](O)C[C@@H](Cc2ccccc2)C(=O)N[C@H]2c3ccccc3C[C@H]2O)CSC1(C)C,,p24,PR-K60C,MT-4,4
O=C1N(Cc2ccccc2)c2cscc2S(=O)(=O)N1Cc1ccccc1,IIIB,syncytia,RT-E138K,CEM,≥5.56
COc1ccc(C[C@H](NC(=O)c2cccc(O)c2C)[C@H](O)C(=O)N2CSC(C)(C)[C@H]2C(=O)NCc2ccccc2C)cc1,052-52 PI-resistant,RT activity,PR-L10R M46I L63P A71V V82T I84V,PBMC,5
CCOCn1c(Cc2cc(C)cc(C)c2)c(CC)c(=O)[nH]c1=O,IIIB BHAP(RT-L100I),syncytia,RT-L100I,CEM,10
Cc1cn([C@H]2C[C@H](N=[N+]=[N-])[C@@H](CO)O2)c(=O)[nH]c1=O,IIIB-Nevirapine(0.1)(RT-Y181C),syncytia,RT-Y181C,CEM,0.667
CN1C(=O)N(Cc2ccccc2)S(=O)(=O)c2cscc21,IIIB,syncytia,RT-V106A,CEM,>141
CC(C)(C)NC(=O)[C@@H]1C[C@@H]2CCCC[C@@H]2CN1C[C@@H](O)[C@H](Cc1ccccc1)NC(=O)[C@H](CC(N)=O)NC(=O)c1ccc2ccccc2n1,Clinical isolate,p24,PR-L10I V11I T12E I15V L19I R41K M46L L63 A71T V82A L90M,PBMC,3.3
CCN1C(=O)N(Cc2ccccc2)S(=O)(=O)c2cscc21,IIIB,syncytia,RT-L100I,CEM,6.8
Cc1cn([C@H]2C[C@H](N=[N+]=[N-])[C@@H](CO)O2)c(=O)[nH]c1=O,UC781-resistant (RT K103N Y181C) A17,p24,RT-K103N Y181C,MT-2,0.8

Again, the opening 6 rows:

{"compound": "CC(C)CN(C[C@@H](O)[C@H](Cc1ccccc1)NC(=O)O[C@H]1CCOC1)S(=O)(=O)c1ccc(N)cc1", "strain or isolate": "Clinical isolate", "read by": "p24", "changes": "PR-L10I K14R R41K M46L I54V L63P A71V V82A L90M I93L", "cells": "PBMC", "result": "6.4"}
{"compound": "Cc1cn([C@@H]2O[C@H](CO[Si](C)(C)C(C)(C)C)C3(OS(=O)(=O)C=C3N)[C@H]2O[Si](C)(C)C(C)(C)C)c(=O)n(C)c1=O", "strain or isolate": "IIIB TIBO R82913-resistant (RT K103N)", "read by": "syncytia", "changes": "RT-K103N", "cells": "CEM", "result": "5"}
{"compound": "Cc1cn([C@H]2C[C@H](N=[N+]=[N-])[C@@H](CO)O2)c(=O)[nH]c1=O", "strain or isolate": "6 clinical isolates AZT-resistant", "read by": "p24", "cells": "PBMC", "result": "5.33"}
{"compound": "Nc1ccn([C@H]2CC[C@@H](CO)O2)c(=O)n1", "read by": "p24", "changes": "RT-delta67 K103N", "cells": "MT-2", "result": "5.2"}
{"compound": "O=c1[nH]cnc2c1ncn2[C@H]1CC[C@@H](CO)O1", "strain or isolate": "NL4-3", "read by": "p24", "changes": "RT-I178L", "cells": "MT-2", "result": "0.67"}
{"compound": "CCc1cc(NCc2nc3c(Cl)ccc(Cl)c3o2)c(=O)[nH]c1C", "strain or isolate": "IIIB TIBO R82913-resistant (RT K103N)", "read by": "syncytia", "changes": "RT-K103N", "cells": "CEM", "result": "71.4"}

Blank or dashed fields: not listed here. Conditions beyond the fields shown may differ between rows.